Results of unrelated studies side by side (data: NIAID ChemDB).

Common to all: growth or infection tests; species: Hepatitis C virus; read-out: EC50

Blank or dashed fields: not listed here. a–b is a range or a potency band. Neighbouring rows are from separate reports. ECn: concentration that inhibits the pathogen or its effect by n%.

smiles	strain or isolate	changes	cell line	method	value
Nc1ncnc2c1c(I)cn2[C@@H]1O[C@H](CO)[C@@H](O)C1(F)F	1a		HCV replicon	replicon	1.1 µM
Cc1cc(N2CCOCC2)ccc1Nc1ncnc2ccc(-c3nccs3)cc12	1b		Huh	luciferase	<1 µM
NS(=O)(=O)c1ccc(CCNc2ncnc3c2cnn3-c2cccc(Cl)c2)cc1			HUH 9B	replicon	1–10 µM
O=C(Cc1cccc(Cl)c1)N/N=C/c1ccncc1OS(=O)(=O)c1ccc(C(F)(F)F)cc1			Huh7	replicon	<5 µM
Nc1ncnc2c1c(-c1ccccc1)cn2[C@@H]1O[C@H](CO)[C@@H](O)[C@H]1F	2a		HCV replicon	replicon	20.73 µM
CCOc1nc(N)nc2c1ncn2[C@@H]1O[C@@H]2COP(=O)(OC(C)C)O[C@H]2[C@@]1(C)F	2a		Lunet	PCR	0.14 µM
NC(=O)c1ccc(F)c(Cn2c(C(=O)NS(=O)(=O)C3CC3)c(-c3ccc[nH]c3=O)c3c4c(c(F)cc32)-c2ccoc2-4)c1			Replicon cells	PCR	0.01 µM
OCC1CCC(c2ccc3ncnc(Nc4ccc(C5CCOCC5)cc4)c3c2)O1	2a		JFH-A4		0.75 µM
Fc1ccccc1-c1nc2cc[n+](Cc3ccc(-c4ccc(C(F)(F)F)cc4C(F)(F)F)nn3)cc2[nH]1			JFH1	luciferase	22.05 µM
CC#Cc1cn([C@@H]2O[C@H](CO)[C@@H](O)[C@@]2(C)O)c2ncnc(N)c12			ET	replicon	>50 µM
Cc1ccncc1C(=O)Nc1ccc(-c2cc(N(C(=O)C3CCC(C)CC3)C(C)C)c(C(=O)O)s2)cc1	1a			replicon	<0.5 µM
COc1ccc(NCc2cc3ccccc3oc2=O)cc1			Ava5		20 µM
Cc1ccc(-n2ncc3c(NC(=O)Cc4ccccc4Br)ncnc32)c(C)c1			HUH 9B	replicon	1–10 µM
Nc1ncnc2c1c(-c1cccs1)cn2[C@@H]1O[C@H](CO)[C@@H](O)[C@H]1F	1a		HCV replicon	replicon	2 µM
Cc1ccc(S(=O)(=O)N/N=C/c2ccccc2OS(=O)(=O)c2ccc(C(F)(F)F)cc2)cc1			Huh7	replicon	5–50 µM
O=c1oc2ccccc2cc1CNc1cccc(O)c1			Ava5		50 µM
O=C(Nc1ccc(OCc2ccccn2)cc1)Nc1ncnc2c1cnn2-c1ccccc1Cl			HUH 9B	replicon	<1 µM
COc1cccc(CC(=O)N/N=C/c2ccccc2OS(=O)(=O)c2cnn(-c3ccccc3)c2C)c1			Huh7	replicon	<5 µM
[N-]=[N+]=N[C@]1(CO)O[C@@H](n2ccc(N)nc2=O)[C@@H](F)[C@@H]1O	1b		Huh-7 (cell line 2209-23)	replicon	0.024 µM
Cc1cccc(C(=O)Nc2ccc(-c3cc(N(C(=O)C4CCC(C)CC4)C(C)C)c(C(=O)O)s3)cc2)n1	1b			replicon	<0.5 µM
CN(c1ccccc1/C=N/NC(=O)Cc1cccnc1)S(=O)(=O)c1ccc(C(F)(F)F)cc1			Huh7	replicon	<5 µM
COC(=O)N[C@H](C(=O)N1CCC[C@H]1c1ncc(-c2ccc(-c3ccc(-c4cnc([C@@H]5CCCN5C(=O)[C@@H](NC(=O)OC)C(C)C)[nH]4)cc3)cc2)[nH]1)C(C)C	1b	D320E	ET	luciferase	0.0000038 µM
COc1ccc2c(c1)C[C@@H]1C[C@]1(C(=O)N1C[C@H]3CC[C@@H](C1)CN(S(=O)(=O)C(C)C)C3)Cn1c-2c(C2CCCCC2)c2ccc(C(=O)NS(=O)(=O)C(C)C)cc21	H77		HCV replicon cells	luciferase / replicon	0.007 µM
Cc1ccc(-n2ncc3c(Nc4ccc(N5CCOCC5)c(C#N)c4)ncnc32)c(C)c1			HUH 9B	replicon	<1 µM
COc1cc(OC)c2c(=O)cc(-c3ccc(N4CCN(c5ccccn5)CC4)c(N)c3)oc2c1	1b		Huh-Luc-Neo	luciferase / reporter gene	>20 µM
Cc1cc(C(=O)Nc2ccc(-c3cc(N(CC4CC4)C(=O)C4CCC(C)CC4)c(C(=O)O)s3)cc2)nn1C	1a			replicon	<0.5 µM
O=C(O)c1ccc(F)c(CN2c3cc(F)c4ccoc4c3C(c3ccc[nH]c3=O)C2C(=O)O)c1			Replicon cells	PCR	0.7 µM
COC(=O)N[C@H](C(=O)N1CC2(CC2)C[C@H]1c1ncc(-c2ccc3c(c2)C(F)(F)c2cc(-c4ccc5nc([C@@H]6[C@H]7CC[C@H](C7)N6C(=O)[C@@H](NC(=O)OC)C(C)C)[nH]c5c4)ccc2-3)[nH]1)C(C)C	genotype 1b		HCV replicon cells	replicon	0.000004 µM
O=C(O)C1C(c2ccc[nH]c2=O)c2c(cc(F)c3ccoc23)N1Cc1cc2c(=O)[nH]cnc2cc1F			Replicon cells	PCR	0.006 µM
COc1cc(OC)c2c(=O)cc(-c3ccc(N4CCN(c5nc6ccccc6o5)CC4)c(N)c3)oc2c1	1b		Huh-Luc-Neo	luciferase / reporter gene	1.5 µM
O=C(N[C@@H](C(=O)N1CCC[C@H]1c1ncc(-c2ccc(-c3ccc(-c4cnc([C@@H]5CCCN5C(=O)[C@H](NC(=O)C5CC5)c5ccccc5)s4)cc3)cc2)s1)c1ccccc1)C1CC1	genotype 1b	P58T	Huh7.5	luciferase / reporter gene	0.000243 µM
C=Cc1cn([C@@H]2C=C(CO)[C@@H](O)[C@H]2O)c2ncnc(C)c12			LucNeo2 cells	luciferase	>100 µM
CCC(=O)c1c(-c2ccc(F)cc2)oc2cc(N(CCO)S(C)(=O)=O)c(C3CC3)cc12			H77	luciferase	0.0085 µM
O=C(O)C1C(c2ccc[nH]c2=O)c2c(cc(F)c3ccoc23)N1Cc1cc2[nH]c(=O)[nH]c2cc1F			Replicon cells	PCR	0.01 µM
Cc1ccc(-n2ncc3c(Nc4ccc(Cl)c(Cl)c4)ncnc32)c(C)c1			HUH 9B	replicon	<1 µM
O=C(Cc1cccc(Br)c1)N/N=C/c1ccccc1NS(=O)(=O)c1ccc(C(F)(F)F)cc1			Huh7	replicon	>50 µM
Nc1ncnc2c1c(-c1ccoc1)cn2[C@H]1O[C@H](CO)[C@@H](O)C1(F)F	1a		HCV replicon	replicon	4.56 µM
COc1ccc(Cl)cc1Nc1ncnc2c1cnn2-c1ccc(Cl)cc1			HUH 9B	replicon	1–10 µM
Cc1ncccc1C(=O)Nc1ccc(-c2cc(N(C(=O)C3CCC(C)CC3)C(C)C)c(C(=O)O)s2)cc1	1a			replicon	>0.5 µM
O=C(Cc1ccccc1)N/N=C/c1ccccc1OCc1cccc2ccccc12			Huh7	replicon	5–50 µM
Nc1ncnc2c1c(-c1ccsc1)cn2[C@@H]1O[C@H](CO)[C@@H](O)C1(F)F	1b		HCV replicon	replicon	5.74 µM
CC1CCC(C(=O)N(c2cc(-c3ccc(NC(=O)c4cnc[nH]4)cc3)sc2C(=O)O)C(C)C)CC1	1b			replicon	<0.5 µM
O=C(N[C@@H](C(=O)N1CCC[C@H]1C(=O)Nc1nc(-c2ccccc2)cs1)c1ccccc1)C1CC1	genotype 2a		JFH1	luciferase	0.8076 µM
Nc1cc(-c2cc(=O)c3c(O)cc(O)cc3o2)ccc1N1CCN(c2ccccc2)CC1	1b		Huh-Luc-Neo	luciferase / reporter gene	>20 µM
CCCCCCCCCCCCCCOC(=O)NC(CCC(=O)O)(CCC(=O)O)CCC(=O)O	1b		Huh7-SGcon1b	replicon / PCR	0.0252 µM
CNC(=O)N1C[C@H]2COC[C@@H](C1)CN(C(=O)[C@]13C[C@H]1Cc1cc(OC)ccc1-c1c(C4CCCCC4)c4ccc(C(=O)NS(=O)(=O)C(C)C)cc4n1C3)C2	H77		HCV replicon cells	luciferase / replicon	0.2 µM
COc1cccc(CC(=O)N/[N+](C)=C/c2ccccc2OS(=O)(=O)c2ccc(C(F)(F)F)cc2)c1			Huh7	replicon	>50 µM
Cc1cccc(C)c1NCc1cc2ccccc2oc1=O			Ava5		24 µM
Nc1nc2cc(F)c(CN3c4cc(F)c5ccoc5c4C(c4ccc[nH]c4=O)C3C(=O)O)cc2c(=O)[nH]1			Replicon cells	PCR	0.007 µM
O=c1oc2ccccc2cc1CNc1ccc(Br)cc1Cl			Ava5		45 µM
Cc1ccc(-n2ncc3c(NCCc4ccc(Cl)cc4)ncnc32)c(C)c1			HUH 9B	replicon	<1 µM
Nc1ncnc2c1c(-c1ccoc1)cn2[C@@H]1O[C@H](CO)[C@@H](O)[C@H]1F	2a		HCV replicon	replicon	14.17 µM
COc1cccc(CC(=O)N/N=C/c2ccccc2OS(=O)(=O)c2ccc(C(F)(F)F)cc2)c1			Huh7	replicon	<5 µM
C[C@@]1(O)[C@H](O)[C@@H](CO)O[C@H]1n1cc(C#CCO)c2c(N)ncnc21			ET	replicon	>50 µM

Repeating the final 3 entries:

smiles,strain or isolate,changes,cell line,method,value
Nc1ncnc2c1c(-c1ccoc1)cn2[C@@H]1O[C@H](CO)[C@@H](O)[C@H]1F,2a,,HCV replicon,replicon,14.17 µM
COc1cccc(CC(=O)N/N=C/c2ccccc2OS(=O)(=O)c2ccc(C(F)(F)F)cc2)c1,,,Huh7,replicon,<5 µM
C[C@@]1(O)[C@H](O)[C@@H](CO)O[C@H]1n1cc(C#CCO)c2c(N)ncnc21,,,ET,replicon,>50 µM